The values below come from ChEMBL document CHEMBL2396622, “Interfacial cavity filling to optimize CD4-mimetic miniprotein interactions with HIV-1 surface glycoprotein” (J Med Chem, 2013).

In assay [1] the target is Envelope glycoprotein gp160 (Human immunodeficiency virus type 1 group M subtype B (isolate SF162)(HIV-1), UniProt P19550). In words: Displacement of soluble CD4 from HIV1 SF162 gp120 after overnight incubation by ELISA. Details: species or system Human immunodeficiency virus type 1 (SF162 ISOLATE). A general note: An ELISA detects its analyte on a solid surface through an enzyme-linked reagent.

Assay [2] deals with Human immunodeficiency virus 1. In words: Ratio of IC50 for HIV1 CN54 gp120 to IC50 for HIV1 SF162 gp120.
The nature of assay [3]: Displacement of soluble CD4 from HIV1 CN54 gp120 after overnight incubation by ELISA. Also on record: species or system Human immunodeficiency virus 1.
For assay [4], the system named is Human immunodeficiency virus 1. Kind of assay: Displacement of soluble CD4 from HIV1 CN54 gp120 after overnight incubation by ELISA relative to M48.
The target in assay [5] is Envelope glycoprotein gp160 (Human immunodeficiency virus type 1 group M subtype B (isolate SF162)(HIV-1)) (UniProt P19550). In words: Displacement of soluble CD4 from HIV1 SF162 gp120 after overnight incubation by ELISA relative to M48. Particulars: Human immunodeficiency virus type 1 (SF162 ISOLATE).
For assay [6], the system named is Human immunodeficiency virus 1. Kind of assay: Antiviral activity against subtype C R5 tropic HIV1 VI1358 infected in human TZM-bl cells after 48 hrs by luciferase repoter gene assay. Type of assay: functional, organism-based. The following applies: Human immunodeficiency virus 1, VI1358, TZM-bl.
For assay [7], the system named is Human immunodeficiency virus 1. Kind of assay: Antiviral activity against subtype C R5 tropic HIV1 VI829 infected in human TZM-bl cells after 48 hrs by luciferase repoter gene assay. Format: functional, organism-based. The following applies: Human immunodeficiency virus 1, VI829, TZM-bl. In outline:
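TZM-bl cells (10⁴/well) pre-incubated 30 min at 37 °C, 5% CO₂ with serial compound dilutions, then infected with 200 TCID₅₀ virus; luciferase read after 48 h. Triplicate wells, single experiment; % inhibition versus untreated control plotted against concentration, EC₅₀ by non-linear regression.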

Assay [8] concerns Human immunodeficiency virus 1. In words: Antiviral activity against subtype B R5 tropic HIV1 Bal infected in human TZM-bl cells after 48 hrs by luciferase repoter gene assay. Particulars: Human immunodeficiency virus 1, Bal. Format: functional, organism-based.
In assay [9] the test system is Human immunodeficiency virus 1. Kind of assay: Antiviral activity against subtype B X4 tropic HIV1 3B infected in human TZM-bl cells after 48 hrs by luciferase repoter gene assay. Type of assay: functional, organism-based. The following applies: Human immunodeficiency virus 1, 3B.
Assay [10] concerns Human immunodeficiency virus 1. In words: Antiviral activity against subtype C R5 tropic HIV1 p246F10 infected in human TZM-bl cells after 48 hrs by luciferase repoter gene assay. Format: functional, organism-based. Particulars: Human immunodeficiency virus 1, p246F10, TZM-bl.
Assay [11] has as its system Human immunodeficiency virus 1. Kind of assay: Antiviral activity against subtype B R5 tropic HIV1 pREJO.c/2864 infected in human TZM-bl cells after 48 hrs by luciferase repoter gene assay. Format: functional, organism-based. Particulars: Human immunodeficiency virus 1, pREJO.c/2864, TZM-bl.
The test system of assay [12] is Human immunodeficiency virus 1. In words: Ratio of IC50 for HIV1 SF162 gp120 to IC50 for HIV1 CN54 gp120.
For assay [13], the system named is Human immunodeficiency virus 1. Kind of assay: Antiviral activity against subtype C R5 tropic HIV1 VI829 infected in human GHOST cells. Type of assay: functional, organism-based. The following applies: Human immunodeficiency virus 1, VI829, GHOST.
For assay [14], the system named is Human immunodeficiency virus 1. Kind of assay: Antiviral activity against subtype B X4 tropic HIV1 3B infected in human GHOST cells. Format: functional, organism-based. Particulars: Human immunodeficiency virus 1, 3B.
The test system of assay [15] is Human immunodeficiency virus 1. Kind of assay: Antiviral activity against subtype B R5 tropic HIV1 Bal infected in human GHOST cells. Type of assay: functional, organism-based. The following applies: Human immunodeficiency virus 1, Bal.
Assay [16] deals with Human immunodeficiency virus 1. In words: Antiviral activity against subtype C R5 tropic HIV1 VI1358 infected in human GHOST cells. Type of assay: functional, organism-based. The following applies: Human immunodeficiency virus 1, VI1358, GHOST.

What is called IC50 is the concentration that inhibits the measured activity by half. Molecule `CC(C)C[C@@H]1NC(=O)CNC(=O)[C@H](CC(C)C)NC(=O)[C@H](CO)NC(=O)[C@H](CCCCN)NC(=O)[C@@H]2CSSC[C@@H](C(=O)N[C@H](C(N)=O)C(C)C)NC(=O)[C@H](C)NC(=O)[C@@H]3CSSC[C@H](NC(=O)[C@H](Cc4ccccc4)NC(=O)[C@H](Cc4cnc[nH]4)NC(=O)[C@H](CC(C)C)NC(=O)[C@H](CC(N)=O)NC(=O)CCSSC[C@H](NC(=O)[C@H](CCCN=C(N)N)NC(=O)CNC(=O)[C@H](CC(C)C)NC1=O)C(=O)N[C@@H](C)C(=O)N1CCC[C@@H]1C(=O)N[C@@H]([C@@H](C)O)C(=O)N[C@@H](Cc1ccc(OCCCCCO)cc1)C(=O)N3)C(=O)N[C@@H](CCC(N)=O)C(=O)N[C@@H](CC(C)C)C(=O)N[C@@H](CCCN=C(N)N)C(=O)N2` came in with an IC50 in assay [1] of 0.0003 µM.

As usually defined, the EC50 is the midpoint of the concentration-response curve. Low readings indicate higher potency in that assay, high ones lower potency in that assay. For `CC(C)C[C@@H]1NC(=O)CNC(=O)[C@H](CC(C)C)NC(=O)[C@H](CO)NC(=O)[C@H](CCCCN)NC(=O)[C@@H]2CSSC[C@@H](C(=O)N[C@H](C(N)=O)C(C)C)NC(=O)[C@H](C)NC(=O)[C@@H]3CSSC[C@H](NC(=O)[C@H](Cc4ccccc4)NC(=O)[C@H](Cc4cnc[nH]4)NC(=O)[C@H](CC(C)C)NC(=O)[C@H](CC(N)=O)NC(=O)CCSSC[C@H](NC(=O)[C@H](CCCNC(=N)N)NC(=O)CNC(=O)[C@H](CC(C)C)NC1=O)C(=O)N[C@@H](C)C(=O)N1CCC[C@@H]1C(=O)N[C@@H]([C@@H](C)O)C(=O)N[C@@H](Cc1ccc(OCCCCCO)cc1)C(=O)N3)C(=O)N[C@@H](CCC(N)=O)C(=O)N[C@@H](CC(C)C)C(=O)N[C@@H](CCCNC(=N)N)C(=O)N2`, the results for the Ratio IC50 in assay [2], in assay [4] and in assay [5] were 8, 0.83 and 0.6, respectively. In assay [3], this molecule yielded an IC50 of 0.0024 µM. Also, the EC50 was > 1 µM in assay [6]; > 1 µM in assay [7]; 0.017 µM in assay [8]; 0.001 µM in assay [9]; > 1 µM in assay [10]; 0.682 µM in assay [11].

Regarding `CC(C)C[C@@H]1NC(=O)CNC(=O)[C@H](CC(C)C)NC(=O)[C@H](CO)NC(=O)[C@H](CCCCN)NC(=O)[C@@H]2CSSC[C@@H](C(=O)N[C@H](C(N)=O)C(C)C)NC(=O)[C@H](C)NC(=O)[C@@H]3CSSC[C@H](NC(=O)[C@H](Cc4ccccc4)NC(=O)[C@H](Cc4cnc[nH]4)NC(=O)[C@H](CC(C)C)NC(=O)[C@H](CC(N)=O)NC(=O)CCSSC[C@H](NC(=O)[C@H](CCCNC(=N)N)NC(=O)CNC(=O)[C@H](CC(C)C)NC1=O)C(=O)N[C@@H](C)C(=O)N1CCC[C@@H]1C(=O)N[C@@H]([C@@H](C)O)C(=O)N[C@@H](Cc1ccc(OCCCCO)cc1)C(=O)N3)C(=O)N[C@@H](CCC(N)=O)C(=O)N[C@@H](CC(C)C)C(=O)N[C@@H](CCCNC(=N)N)C(=O)N2`, the Ratio IC50 in assay [2] was 12; in [4] it was 3.5; in [12], 2.2; in assay [5], 1.6. Further, the IC50 in [3] is 0.0101 µM.

`CC(C)C[C@@H]1NC(=O)CNC(=O)[C@H](CC(C)C)NC(=O)[C@H](CO)NC(=O)[C@H](CCCCN)NC(=O)[C@@H]2CSSC[C@@H](C(=O)N[C@H](C(N)=O)C(C)C)NC(=O)[C@H](C)NC(=O)[C@@H]3CSSC[C@H](NC(=O)[C@H](Cc4ccccc4)NC(=O)[C@H](Cc4cnc[nH]4)NC(=O)[C@H](CC(C)C)NC(=O)[C@H](CC(N)=O)NC(=O)CCSSC[C@H](NC(=O)[C@H](CCCNC(=N)N)NC(=O)CNC(=O)[C@H](CC(C)C)NC1=O)C(=O)N[C@@H](C)C(=O)N1CCC[C@@H]1C(=O)N[C@@H]([C@@H](C)O)C(=O)N[C@@H](Cc1ccc(OCC4CCCN4)cc1)C(=O)N3)C(=O)N[C@@H](CCC(N)=O)C(=O)N[C@@H](CC(C)C)C(=O)N[C@@H](CCCNC(=N)N)C(=O)N2` (some centres undefined): the Ratio IC50 came out at 7 in [2], 13 in [4], 1.3 in assay [12] and 10 in assay [5]. The IC50 in assay [3] amounted to 0.0382 µM.

Regarding `CC(C)C[C@@H]1NC(=O)CNC(=O)[C@H](CC(C)C)NC(=O)[C@H](CO)NC(=O)[C@H](CCCCN)NC(=O)[C@@H]2CSSC[C@@H](C(=O)N[C@H](C(N)=O)C(C)C)NC(=O)[C@H](C)NC(=O)[C@@H]3CSSC[C@H](NC(=O)[C@H](Cc4ccccc4)NC(=O)[C@H](Cc4cnc[nH]4)NC(=O)[C@H](CC(C)C)NC(=O)[C@H](CC(N)=O)NC(=O)CCSSC[C@H](NC(=O)[C@H](CCCNC(=N)N)NC(=O)CNC(=O)[C@H](CC(C)C)NC1=O)C(=O)N[C@@H](C)C(=O)N1CCC[C@@H]1C(=O)N[C@@H]([C@@H](C)O)C(=O)N[C@@H](Cc1ccc(OCC[S+]([O-])CCO)cc1)C(=O)N3)C(=O)N[C@@H](CCC(N)=O)C(=O)N[C@@H](CC(C)C)C(=O)N[C@@H](CCCNC(=N)N)C(=O)N2` (some centres undefined), the IC50 in [1] amounted to 0.0081 µM; in [3], 1.23 µM. Also, the results for the Ratio IC50 in [2], in assay [4] and in [5] were 152, 424 and 15, respectively.

In the case of `CC(C)C[C@@H]1NC(=O)CNC(=O)[C@H](CC(C)C)NC(=O)[C@H](CO)NC(=O)[C@H](CCCCN)NC(=O)[C@@H]2CSSC[C@@H](C(=O)N[C@H](C(N)=O)C(C)C)NC(=O)[C@H](C)NC(=O)[C@@H]3CSSC[C@H](NC(=O)[C@H](Cc4ccccc4)NC(=O)[C@H](Cc4cnc[nH]4)NC(=O)[C@H](CC(C)C)NC(=O)[C@H](CC(N)=O)NC(=O)CCSSC[C@H](NC(=O)[C@H](CCCNC(=N)N)NC(=O)CNC(=O)[C@H](CC(C)C)NC1=O)C(=O)N[C@@H](C)C(=O)N1CCC[C@@H]1C(=O)N[C@@H]([C@@H](C)O)C(=O)N[C@@H](Cc1ccc(OCCSCCO)cc1)C(=O)N3)C(=O)N[C@@H](CCC(N)=O)C(=O)N[C@@H](CC(C)C)C(=O)N[C@@H](CCCNC(=N)N)C(=O)N2`, the IC50 in assay [1] was determined as 0.00028 µM; in [3] it was 0.0034 µM. Further, the Ratio IC50 came out at 12 in assay [2], 1.2 in assay [4], 2.4 in assay [12] and 0.5 in assay [5]. In addition, the EC50 was > 1 µM in assay [6]; > 1 µM in assay [7]; 0.048 µM in [8]; 0.0025 µM in [9]; > 1 µM in assay [10]; > 1 µM in assay [11].

As for `CC(C)C[C@@H]1NC(=O)CNC(=O)[C@H](CC(C)C)NC(=O)[C@H](CO)NC(=O)[C@H](CCCCN)NC(=O)[C@@H]2CSSC[C@@H](C(=O)N[C@H](C(N)=O)C(C)C)NC(=O)[C@H](C)NC(=O)[C@@H]3CSSC[C@H](NC(=O)[C@H](Cc4ccccc4)NC(=O)[C@H](Cc4cnc[nH]4)NC(=O)[C@H](CC(C)C)NC(=O)[C@H](CC(N)=O)NC(=O)CCSSC[C@H](NC(=O)[C@H](CCCN=C(N)N)NC(=O)CNC(=O)[C@H](CC(C)C)NC1=O)C(=O)N[C@@H](C)C(=O)N1CCC[C@@H]1C(=O)N[C@@H]([C@@H](C)O)C(=O)N[C@@H](Cc1ccc(OCCCCO)cc1)C(=O)N3)C(=O)N[C@@H](CCC(N)=O)C(=O)N[C@@H](CC(C)C)C(=O)N[C@@H](CCCN=C(N)N)C(=O)N2`, in assay [1], the IC50 was determined as 0.00086 µM.

Turning to `CC(C)C[C@@H]1NC(=O)CNC(=O)[C@H](CC(C)C)NC(=O)[C@H](CO)NC(=O)[C@H](CCCCN)NC(=O)[C@@H]2CSSC[C@@H](C(=O)N[C@H](C(N)=O)C(C)C)NC(=O)[C@H](C)NC(=O)[C@@H]3CSSC[C@H](NC(=O)[C@H](Cc4ccccc4)NC(=O)[C@H](Cc4cnc[nH]4)NC(=O)[C@H](CC(C)C)NC(=O)[C@H](CC(N)=O)NC(=O)CCSSC[C@H](NC(=O)[C@H](CCCNC(=N)N)NC(=O)CNC(=O)[C@H](CC(C)C)NC1=O)C(=O)N[C@@H](C)C(=O)N1CCC[C@@H]1C(=O)N[C@@H]([C@@H](C)O)C(=O)N[C@@H](Cc1ccc(OCCc4ccccc4)cc1)C(=O)N3)C(=O)N[C@@H](CCC(N)=O)C(=O)N[C@@H](CC(C)C)C(=O)N[C@@H](CCCNC(=N)N)C(=O)N2`, the IC50 in assay [1] stood at 0.00032 µM; in assay [3], 0.0117 µM. The Ratio IC50 came to 37 in [2], 4 in assay [4] and 0.6 in [5]. Also, the EC50 in assay [6] was > 1 µM; in assay [7] it was > 1 µM; in [13] it was 0.951 µM; in assay [8] it was 0.022 µM; in assay [9], 0.0012 µM; in [14] it was 0.003 µM. The EC50 in [10] is > 1 µM; in assay [11] it was > 1 µM; in assay [15] it was 0.067 µM; in assay [16], 0.364 µM.
